# Library screen at single concentrations

The values are deposited in ChEMBL (CHEMBL3988442, “University of Dundee, Small-Polar-MMV Screening Library” (2021)).

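Whole-cell growth test on Mycobacterium tuberculosis, read after 3 days in glucose-containing 7H9 medium; the read-out is not stated. Compounds at 500 µM. The record gives no direction; compounds that gave an IC50 in retests scored well above the rest, so higher reads as more growth inhibition. About 18,000 compounds were tested under these conditions; 7.9% (about 1,400) showed 50% or more at least once.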

Results are given as percent effect. How 0% and 100% were set is not recorded. Most values in the screen are low, and negative values occur. This is part of a subset picked to be rich in strong results.

Compound	Percent Effect
CC(C)OCCN1CCC(N)CC1	4.998%
O=C1CN(C(=O)CSc2ncccc2Cl)CCN1	2.889%
CC(N)c1nncn1C (stereo not given)	41.5%
O=C(NCCN1CCOCC1)c1cc(C2CC2)[nH]n1	13.61%
O=C(CCC(F)(F)F)N[C@@H]1c2ccccc2C[C@@H]1O	35.11%
CCN(CC)S(=O)(=O)NCCCN1CCCCCC1=O	9.498%
Nc1ccc(C(=O)N2C[C@H](O)[C@@H](N3CCCC3)C2)cn1	-3.855%
CC(C)(C)CC(=O)NCCS(=O)(=O)N1CCSCC1	5.053%
CCC(C)(C#N)NC(=O)c1ccccc1 (stereo not given)	11.92%
CN(CCCNS(N)(=O)=O)c1ccccc1F	33.05%
COc1ccc(CSCC(N)=O)cc1Br	66.31%
COc1ccc(C(=O)N2CCNCC2)c(OC)c1	-5.936%
COc1cc2c(cc1OC)CN(C(=O)CCCN)CC2	23.55%
COCCOCC(C)NC(=O)C1(C#N)CCC1 (stereo not given)	1.323%
C=C(C)CN(CC)C(=O)CN(C)CCN1CCOCC1	12.11%
CN(CCOc1ccc(Cl)cc1)CCC(N)=O	47.41%
Cc1ccc2ncc(CO)cc2c1	31.59%
Cc1ncsc1C(=O)N1CCOc2cccc(F)c2C1	45.05%
Cn1cc(CC(=O)Nc2ccc(I)cn2)cn1	55.53%
O=S(=O)(c1cc2ccccc2o1)N1CCOCC1	47.15%
CCC=C(C)C(=O)N1CCN(C(=O)c2cccs2)CC1	37.72%
CCOC(=O)c1nn(CC)c2c1CNCC2	14.35%
CC(C#N)Sc1nnnn1Cc1cccs1 (stereo not given)	35.33%
Cc1nc(N(C)C)cc(N2CCN(S(C)(=O)=O)CC2)n1	1.858%
COc1cc(F)ccc1NC(=O)C1CCOCC1	16.44%
Cc1ccn(-c2ccccc2NC(=O)CN(C)C)n1	17.99%
CCn1ccnc(NC2CC2)c1=O	4.682%
O=C(CCNC(=O)c1cc[nH]n1)NC1CCCCC1	9.511%
CC(SC1=NCCN1)C(=O)Nc1ccc(F)cc1 (stereo not given)	33.69%
CC(C)Cc1noc(-c2ccc(N(C)CCO)nc2)n1	69.77%
CCOC(=O)N1CCC(N2CCC(C(N)=O)CC2)CC1	26.19%
CC(C)(CO)NCc1ccc2c(c1)OCO2	-2.988%
CCCN(C)S(=O)(=O)NC(C)c1ccc(OC)c(F)c1 (stereo not given)	60.26%
Cc1nc(N)ncc1C(=O)NCC1COCCO1 (stereo not given)	11.38%
CC(C)[C@H](N)C(=O)N1CCc2cccc(F)c2C1	-1.625%
N#CCCN1CCC(C(=O)NCc2ccccc2)CC1	2.514%
CCNC(=O)Cn1ccc(N)n1	9.625%
N#CC1(C(=O)NCc2ccncc2)CCOCC1	1.963%
CC(C)C(N)c1ncon1 (stereo not given)	-0.2025%
CCS(=O)(=O)NCCCNS(=O)(=O)c1ccc(C)cc1	29.17%
CC(C)(C)OC(=O)N1C[C@@H](N)[C@H](O)C1	5.876%
CS(=O)(=O)CCN1CCC(Oc2ccc(F)cc2)CC1	77.22%
CC(CN)N(C)C(=O)c1ccc(Br)cc1 (stereo not given)	16.47%
Nc1ncccc1CN1C[C@@H]2CCC[C@H](C1)C(=O)N2	24.29%
CCOC(=O)c1ccc(CNc2nncs2)o1	18.02%
CC1CN(C)CCN1C(=O)c1cc(-c2ccco2)[nH]n1 (stereo not given)	-19.81%
CN(C(=O)CSCC#N)C1CCCCC1	34.88%
O=C(CN(CC1CCOC1)C1CC1)NC1CC1 (stereo not given)	0.002987%
CNC(=O)c1nc(C(=O)NCc2ccc(C)o2)cs1	44.59%
C[C@H](N)c1ccc(Cl)s1	35.47%
COC(=O)CN(CCc1ccccc1)C(C)=O	5.455%
CN(Cc1ccc(Cl)cc1)C(=O)C1CCNC1 (stereo not given)	22.85%
CSCCC(=O)N(C)Cc1cccc(-n2cccn2)c1	75.35%
COc1ccc(NCCCO)cc1	43.87%

The last 5 entries again:

| Compound | Percent Effect |
|---|---|
| `C[C@H](N)c1ccc(Cl)s1` | 35.47% |
| `COC(=O)CN(CCc1ccccc1)C(C)=O` | 5.455% |
| `CN(Cc1ccc(Cl)cc1)C(=O)C1CCNC1` (stereo not given) | 22.85% |
| `CSCCC(=O)N(C)Cc1cccc(-n2cccn2)c1` | 75.35% |
| `COc1ccc(NCCCO)cc1` | 43.87% |